Laboratory results published in article PMC12114598, “Repositioning FDA-Approved Sulfonamide-Based Drugs as Potential Carbonic Anhydrase Inhibitors in Trypanosoma cruzi: Virtual Screening and In Vitro Studies” (Pharmaceuticals, 2025).

How the values were obtained:
Type in all cases: cell-based, Trypanosoma cruzi
Details in all cases: CC50/IC50
[1] = tested on: T. cruzi epimastigotes, NINOA strain; experiment: Trypanocidal activity, epimastigotes in vitro, NINOA strain
[2] = tested on: T. cruzi blood trypomastigotes, NINOA strain; experiment: Trypanocidal activity, blood trypomastigotes ex vivo, NINOA strain
[3] = tested on: T. cruzi epimastigotes, A1 strain; experiment: Trypanocidal activity, epimastigotes in vitro, A1 strain
Excerpt: The selected drugs were purchased from Sigma-Aldrich without further purification. For the in vitro evaluation, the methodology proposed by Domínguez-Diaz et al. 2021 [53] against epimastigotes of T. cruzi strains NINOA (MHOM/MX/1994/NINOA) and A1 for the evaluation of candidate compounds was used. Both strains were maintained in liver-infusion tryptose (LIT) medium supplemented with 10% fetal bovine serum (FBS) and 0.1% penicillin–streptomycin. These strains were maintained by transferring 1 × 10^6 parasites/mL to fresh medium once a week. […] All compounds were initially prepared at a concentration of 10 mg/mL using dimethyl sulfoxide (DMSO) as a diluent. Serial dilutions were then performed with LIT medium until concentrations of 100 to 0.46 μg/mL of each compound were obtained. Amounts of 1 × 10^6 T. cruzi epimastigotes were grown in each well and incubated for 48 h at 28 °C in a final volume of 200 μL. DMSO was included as a negative control, and reference drugs as positive controls. At the end of the incubation period, 20 μL of resazurin solution (2.5 mM) was added to each well and incubated for 3 h. All assays were performed in triplicate, and the IC50 value was determined by probit analysis.

[4] = tested on: T. cruzi amastigotes, NINOA strain; experiment: Amastigote assay, NINOA strain
Experimental: Amastigote susceptibility to reference drugs was evaluated in vitro. […] The lysis solution was then replaced with Schneider’s medium followed by incubation at 28 °C for another 4 to 5 days to allow the transformation of viable amastigotes and their subsequent proliferation. Then, MTT colorimetric assays were performed. Finally, the half maximal inhibitory concentration (IC50) was determined by probit analysis. All studies were approved by the Institutional Committee for Handling and Animal Care of the Facultad de Ciencias Quimicas de la Universidad Autonoma “Benito Juarez” de Oaxaca (Register FCQ-CIP-0209243, Approved 23 September 2024) and were carried out according to Mexican guidance (NOM-062-ZOO-1999).

| Compound | SI Epimastigote NINOA [1] | SI Trypomastigote NINOA [2] | SI Epimastigote A1 [3] | SI Amastigote NINOA [4] |
| --- | --- | --- | --- | --- |
| CC(=O)c1ccc(S(=O)(=O)NC(=O)NC2CCCCC2)cc1 [Ace, acetohexamide] | >30.7 | >4.3 | >3.8 | >4.34 |
| CCC1=C(C)CN(C(=O)NCCc2ccc(S(=O)(=O)NC(=O)N[C@H]3CC[C@H](C)CC3)cc2)C1=O [Glim, glimepiride] | 0.2 | – | 0.38 | – |
| CCCCNC(=O)NS(=O)(=O)c1ccc(C)cc1 [Tol, tolbutamide] | >23.5 | >20.4 | – | >1.3 |
